Data as given in patent US20170059558A1.

Target: SNAP-25 (human) (UniProt P60880)
Assay: cell-based or functional assay

Substance: Botulinum neurotoxin type A
- EC50 with GT1b (30 µM), SNAP-25 cleavage in iCell neurons, Batch 02: 0.65 U/ml
- EC50 with GT1b (30 µM), SNAP-25 cleavage in iCell neurons, Batch 03: 0.89 U/ml
- EC50 with GT1b (30 µM), SNAP-25 cleavage in iCell neurons, Batch 04: 0.77 U/ml
- EC50 with GT1b (30 µM), SNAP-25 cleavage in iCell neurons, Batch 05: 0.68 U/ml
- EC50 with GT1b (30 µM), SNAP-25 cleavage in iCell neurons, Mean of 4 batches: 0.75 U/ml
- EC50 without GT1b, SNAP-25 cleavage in iCell neurons, Batch 02: 2.84 U/ml
- EC50 without GT1b, SNAP-25 cleavage in iCell neurons, Batch 03: 5.37 U/ml
- EC50 without GT1b, SNAP-25 cleavage in iCell neurons, Batch 04: 6.4 U/ml
- EC50 without GT1b, SNAP-25 cleavage in iCell neurons, Batch 05: 5.47 U/ml
- EC50 without GT1b, SNAP-25 cleavage in iCell neurons, Mean of 4 batches: 5.02 U/ml
